Results taken from patent publication US20250049819A1, “METHODS FOR TREATING AND PREVENTING C. DIFFICILE INFECTION” (Paratek Pharmaceuticals, Inc., priority 2016, published 2025).

Assay: Bioassay of antimicrobial concentration in gut model vessels (Example 3)
Conditions: instillation 430 mg/L once daily for 7 days

## CN(C)c1cc(CNCC(C)(C)C)c(O)c2c1C[C@H]1C[C@H]3[C@H](N(C)C)C(O)=C(C(N)=O)C(=O)[C@@]3(O)C(O)=C1C2=O (stereo in doubt) [Omadacycline]
  peak bioactive omadacycline concentration, vessel 1: ~370 mg/L
  peak bioactive omadacycline concentration, vessel 2: ~150 mg/L
  peak bioactive omadacycline concentration, vessel 3: ~150 mg/L
